Measurements reported in PubChem BioAssay AID1259414 (Drosophila RNAi Screening Center, 2018)
Test: 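Host factors increasing or decreasing Wolbachia levels in cultured fly cells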 (primary screen). System: Drosophila JW18 cells infected with Wolbachia. Knock-down reagent: long dsRNA against Drosophila genes, 0.25 µg dsRNA per well of a 384-well plate. Time to read-out: 5 days. Conditions: cells persistently infected with Wolbachia before knock-down; no added drug. Measured: 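Imaged fluorescence in situ signal for Wolbachia 23S rRNA per DAPI-counted host cell, given as a robust z-score within each plate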. Direction: Wolbachia per cell robust z: higher = more Wolbachia per host cell than the plate typical. Call rule: 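Hit when robust z is 1.5 or more, or -1.5 or less, in at least two of three replicates; excludes dsRNAs with several or no targets, genes not expressed in JW18 and well A1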.
In all, the deposit lists about 24,000 reagents; below is a random part of those that have a named target and a result. Of all reagents, about 1,210 (5%) got an active call. 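Inactive calls also include excluded dsRNAs with several or no targets, genes unexpressed in JW18, and well A1, regardless of score.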 Entries without a mark were called inactive. A plus sign joins genes that one reagent is predicted to hit. No sequences are given here.

For Nep7 [DRSC15830], what does the deposit list?
Wolbachia per cell robust z, rep 1: 0.767; Wolbachia per cell robust z, rep 2: 0.623; Wolbachia per cell robust z, rep 3: 0.043

Which result is listed for Nep7 [DRSC26582]?
Wolbachia per cell robust z, rep 1: -0.704; Wolbachia per cell robust z, rep 2: 0.647; Wolbachia per cell robust z, rep 3: 0.668

Which result is listed for Arpc5 [DRSC00730]?
Wolbachia per cell robust z, rep 1: -2.9; Wolbachia per cell robust z, rep 2: 0.32; Wolbachia per cell robust z, rep 3: 0.00289

What did the screen give for Cyp313a5 [DRSC16628]?
Wolbachia per cell robust z, rep 1: -1.26; Wolbachia per cell robust z, rep 2: 0.58; Wolbachia per cell robust z, rep 3: 0.562

What did the screen give for Dlc90F [DRSC16649]?
Wolbachia per cell robust z, rep 1: 0.0656; Wolbachia per cell robust z, rep 2: -0.945; Wolbachia per cell robust z, rep 3: 1.83

For CG32820 + CG17450 + CG32819 [DRSC21803], what does the deposit list?
Wolbachia per cell robust z, rep 1: -0.518; Wolbachia per cell robust z, rep 2: -1.7; Wolbachia per cell robust z, rep 3: -1.37

Which result is listed for CG32820 + CG17450 + CG32819 [DRSC22812]?
Wolbachia per cell robust z, rep 1: -0.113; Wolbachia per cell robust z, rep 2: 0.51; Wolbachia per cell robust z, rep 3: 0.349

For CG4880 [DRSC19923], what was measured?
Wolbachia per cell robust z, rep 1: -5.24; Wolbachia per cell robust z, rep 2: 0.414; Wolbachia per cell robust z, rep 3: 0.235

Which result is listed for CG42460 [DRSC40616]?
Wolbachia per cell robust z, rep 1: -2.78; Wolbachia per cell robust z, rep 2: -0.152; Wolbachia per cell robust z, rep 3: -0.0765

How did the screen score Cdc16 [DRSC16920]?
Wolbachia per cell robust z, rep 1: 0.279; Wolbachia per cell robust z, rep 2: 0.178; Wolbachia per cell robust z, rep 3: -0.0124

For CG3823 [DRSC18325], how do the results read?
Wolbachia per cell robust z, rep 1: 0.696; Wolbachia per cell robust z, rep 2: 0.0117; Wolbachia per cell robust z, rep 3: -0.107

How did the screen score CG3823 [DRSC26025]?
Wolbachia per cell robust z, rep 1: 0.158; Wolbachia per cell robust z, rep 2: -0.0755; Wolbachia per cell robust z, rep 3: -0.345

With Lip1 [DRSC03364], what does the deposit list?
Wolbachia per cell robust z, rep 1: -0.358; Wolbachia per cell robust z, rep 2: 0.664; Wolbachia per cell robust z, rep 3: -0.807

What is on record for dpp [DRSC00118]?
Wolbachia per cell robust z, rep 1: -0.931; Wolbachia per cell robust z, rep 2: 0.412; Wolbachia per cell robust z, rep 3: 0.604

For dpp [DRSC00121], what does the deposit list?
Wolbachia per cell robust z, rep 1: -0.552; Wolbachia per cell robust z, rep 2: 0.68; Wolbachia per cell robust z, rep 3: -0.133

What is on record for dpp [DRSC00813]?
Wolbachia per cell robust z, rep 1: 0.665; Wolbachia per cell robust z, rep 2: -0.119; Wolbachia per cell robust z, rep 3: 0.678

With dpp [DRSC26853], what does the deposit list?
Wolbachia per cell robust z, rep 1: -0.745; Wolbachia per cell robust z, rep 2: -1.47; Wolbachia per cell robust z, rep 3: -0.428

What is on record for dpr20 [DRSC08265]?
Wolbachia per cell robust z, rep 1: -0.256; Wolbachia per cell robust z, rep 2: 0.251; Wolbachia per cell robust z, rep 3: 0.774

For CG12942 [DRSC06253], what was measured?
Wolbachia per cell robust z, rep 1: -0.0106; Wolbachia per cell robust z, rep 2: -1.43; Wolbachia per cell robust z, rep 3: -0.434

With CG12942 [DRSC25987], how do the results read?
Wolbachia per cell robust z, rep 1: -1.89; Wolbachia per cell robust z, rep 2: 0.673; Wolbachia per cell robust z, rep 3: -0.542

How did the screen score Klp64D [DRSC11204]?
Wolbachia per cell robust z, rep 1: -0.493; Wolbachia per cell robust z, rep 2: -2.52; Wolbachia per cell robust z, rep 3: -1.28

How did the screen score CG6638 [DRSC10680]?
Wolbachia per cell robust z, rep 1: -2.18; Wolbachia per cell robust z, rep 2: -0.0013; Wolbachia per cell robust z, rep 3: -1.24

Which result is listed for CG6638 [DRSC24246]?
Wolbachia per cell robust z, rep 1: -1.07; Wolbachia per cell robust z, rep 2: 0.386; Wolbachia per cell robust z, rep 3: 0.173

Which result is listed for Snx27 [DRSC17786]?
Wolbachia per cell robust z, rep 1: 0.0356 (active); Wolbachia per cell robust z, rep 2: -1.58; Wolbachia per cell robust z, rep 3: -3.56

How did the screen score Snx27 [DRSC18282]?
Wolbachia per cell robust z, rep 1: -1.93; Wolbachia per cell robust z, rep 2: -0.366; Wolbachia per cell robust z, rep 3: 0.286

Which result is listed for Snx27 [DRSC18284]?
Wolbachia per cell robust z, rep 1: -0.224; Wolbachia per cell robust z, rep 2: 0.339; Wolbachia per cell robust z, rep 3: -0.565

With CG13575 [DRSC04211], how do the results read?
Wolbachia per cell robust z, rep 1: 0.225; Wolbachia per cell robust z, rep 2: -1.53; Wolbachia per cell robust z, rep 3: -2.64

How did the screen score CG13575 [DRSC22851]?
Wolbachia per cell robust z, rep 1: 0.366; Wolbachia per cell robust z, rep 2: -0.386; Wolbachia per cell robust z, rep 3: 0.27

What is on record for CG7231 [DRSC03034]?
Wolbachia per cell robust z, rep 1: -1.76; Wolbachia per cell robust z, rep 2: 0.737; Wolbachia per cell robust z, rep 3: 1.14

How did the screen score CG32086 [DRSC10586]?
Wolbachia per cell robust z, rep 1: 0.673; Wolbachia per cell robust z, rep 2: -1.11; Wolbachia per cell robust z, rep 3: 1.04

Hits, of those listed so far:
Snx27 [DRSC17786] | Wolbachia per cell robust z, rep 1 = 0.0356 (active); Wolbachia per cell robust z, rep 2 = -1.58; Wolbachia per cell robust z, rep 3 = -3.56
